Reference: PubChem BioAssay AID504761 (Drosophila RNAi Screening Center, 2011)
The deposit covers about 22,000 reagents; below is a random part of those that have a named target and a result. In the full data, 116 (0.52%) are marked active. 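Calls depend on retest data that are not deposited; infection was ranked per plate without normalising between plates; the unit of the infection score is not given.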 Raw values are not corrected between plates. A number with no mark means an inactive call. A plus sign joins genes that one reagent is predicted to hit. The record does not give: the amount of reagent, the time to read-out.

- Assay: 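Fly genes whose silencing reduces dengue virus type 2 infection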 (primary screen)
- System: D.Mel-2 cells from Drosophila
- Knock-down reagent: long dsRNA against Drosophila genes
- Treatment: infection with dengue virus type 2; dose and infection time not stated
- Measured: 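Per well on two replicate plates, imaging gave the percent of cells positive for viral envelope protein, ranked by infection, and a nuclear count of cells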
- Scale: infection score: higher = more virus-infected cells; cell count: higher = more cells in the well
- Active means: 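Low infection ranks in the two replicates (chance level up to 0.065) followed by a retest with a 1.5-fold or larger significant decrease, p below 0.05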
- Meaning of the calls: active = confirmed: knock-down lowers infection; inactive = not picked or not confirmed

| target gene | amplicon | infection score, replicate 1 | infection score, replicate 2 | cell count, replicate 1 | cell count, replicate 2 |
| --- | --- | --- | --- | --- | --- |
| CG17570 | DRSC01770 | 1.39 | 0.7 | 6190 | 6281 |
| CG17570 | DRSC03754 | 6.86 | 6.6 | 6327 | 6376 |
| p47 | DRSC06046 | 5.24 | 12.9 | 7220 | 6334 |
| Ugt36D1 | DRSC02600 | 16.8 | 8.75 | 6280 | 6008 |
| CG3632 | DRSC19871 | 2.25 | 1.47 | 6455 | 6400 |
| rdx | DRSC16580 | 0.73 | 6.41 | 6133 | 5960 |
| rdx | DRSC23120 | 0.74 | 1.22 | 6374 | 6978 |
| rdx | DRSC29820 | 15.1 | 9.79 | 6312 | 6179 |
| CG15020 | DRSC08474 | 1.44 | 3.29 | 6129 | 5653 |
| CG43367 | DRSC08299 | 3.51 | 2.64 | 5987 | 6087 |
| CG43367 | DRSC08301 | 1.78 | 1.5 | 6476 | 5803 |
| CG43367 | DRSC08309 | 4.57 | 4.1 | 5992 | 5921 |
| CG43367 | DRSC24732 | 3.23 | 11.2 | 6260 | 6170 |
| CG6276 | DRSC16007 | 22.1 | 11.3 | 4399 | 5951 |
| CG6276 | DRSC27870 | 5.66 | 25.5 | 6133 | 5872 |

The list goes on; the last 2 above are carried over.
| target gene | amplicon | infection score, replicate 1 | infection score, replicate 2 | cell count, replicate 1 | cell count, replicate 2 |
| --- | --- | --- | --- | --- | --- |
| CG6276 | DRSC16007 | 22.1 | 11.3 | 4399 | 5951 |
| CG6276 | DRSC27870 | 5.66 | 25.5 | 6133 | 5872 |
| lds | DRSC16988 | 4.52 | 6.58 | 6134 | 6655 |
| Syn1 + CG7370 | DRSC22768 | 1.02 | 17.6 | 5515 | 6418 |
| Syn1 + CG7370 | DRSC27632 | 8.76 | 11.8 | 5922 | 6549 |
| CG17271 | DRSC15210 | 6.02 | 18.2 | 1828 | 6879 |
| CG17271 | DRSC22982 | 3.73 | 10.8 | 6539 | 6111 |
| CG17271 | DRSC25780 | 4.18 | 1.07 | 6174 | 6908 |
| CG7914 | DRSC20068 | 5.02 | 2.34 | 6036 | 6103 |
| CG7914 | DRSC28931 | 2.65 | – | 981 | 371 |
| CG10874 | DRSC00297 | 0.27 | 2.47 | 366 | 6362 |
| CG10874 | DRSC26108 | 10.9 | 12.3 | 5613 | 5588 |
| CG30196 | DRSC04156 | 8.03 | 4.05 | 6622 | 6377 |
| Idgf3 | DRSC03351 | 28.1 | 10.7 | 5727 | 6293 |
| Boh2 | DRSC02777 | – | 21.4 | 620 | 2978 |
| CARPB | DRSC18437 | 0.57 | 1.2 | 6698 | 7089 |
| CARPB | DRSC18438 | 7.27 | 7.01 | 6783 | 6774 |
| Lk6 | DRSC12867 | 7.04 | 2.71 | 6092 | 5802 |
| Lk6 | DRSC16728 | 19.1 | 12.8 | 3801 | 6152 |
| Lk6 | DRSC24029 | 8.94 | 5.84 | 6198 | 5752 |
| CG13796 | DRSC24686 | 3.69 | 4.99 | 6394 | 5893 |
| ex | DRSC00817 | 4.29 | 3.21 | 6253 | 6383 |
| ex | DRSC23963 | 1.25 | 0.68 | 5738 | 6036 |
| CG34047 (retired record) | DRSC07857 | 12.2 | 20.4 | 6755 | 6541 |
| CG34047 (retired record) | DRSC21689 | 2.28 | 7.09 | 5912 | 6135 |
| Gr98d | DRSC14571 | 5.25 | – | 6894 | 363 |
| Gr98d | DRSC24547 | 2.38 | 0.83 | 6601 | 6274 |
